Patent publication US7544773 (dated 2009)

Biological target: Caf1M periplasmic chaperone (Yersinia pestis, UniProt P26926 24-258)
Experiment: IEF of periplasmic extracts, immunoblot with anti-Caf1M and anti-Caf1

B1: Caf1 subunit (capsular F1 antigen subunit) (other)
chain: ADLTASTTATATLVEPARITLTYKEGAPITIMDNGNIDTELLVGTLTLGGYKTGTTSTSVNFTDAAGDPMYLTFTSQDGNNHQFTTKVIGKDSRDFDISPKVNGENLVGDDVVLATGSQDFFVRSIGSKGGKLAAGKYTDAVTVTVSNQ
binding result: binds
